The results in this text go back to patent US11390664B2, “Antibodies that potently neutralize hepatitis B virus and uses thereof” (priority 2015, dated 2022).

For assay [1], the system named is HBV (genotype D). Briefly: Combination therapy in chronically HBV infected humanized uPA/SCID mice. The class given is in vivo. As to conditions: 4 weeks treatment from week 8 post-infection; HBC34 1 mg/kg i.p. twice per week; lamivudine 0.4 mg/ml in drinking water.
Assay [2] concerns HBsAg of the 10 HBV genotypes A, B, C, D, E, F, G, H, I, and J. Put plainly: Flow cytometry binding to Hep2 cells transfected with HBsAg genotypes. As to conditions: 5 μg/ml; permeabilized transfected Hep2 cells. On the technique in general: A flow cytometer gives signals particle by particle.
Assay [3] deals with HBV. Put plainly: HBV/HDV co-infected humanized uPA/SCID mice: HBV DNA viremia. As to conditions: 1 mg/kg i.p. twice per week for 6 weeks.
The subject of assay [4] is HDV. Put plainly: HBV/HDV co-infected humanized uPA/SCID mice: HDV viremia. The class given is in vivo. As to conditions: 3 weeks and 6 weeks after treatment (weeks 8 and 11); 1 mg/kg i.p. twice per week.
In assay [5] the test system is HBV. To be noted: week 3 and week 6 of treatment (weeks 15 and 18 post-infection); 1 mg/kg i.p. twice per week.

For “HBC34: IgG1-type fully human monoclonal antibody against HBsAg antigenic loop; VH SEQ ID NO: 41, VL SEQ ID NO: 42”, in assay [1], the “HBsAg drop (reduction)” value worked out at 1.3 log and the “mean reduction of viremia” value is given as 0.7 log. Also, the “recognition of the 10 HBV HBsAg genotypes” value in assay [2] is recorded as “recognized all 10 HBV HBsAg genotypes”. In addition, the “HBV viral DNA titers reduction” value in assay [3] came out at 2 logs. Besides, the HDV viral spread entry in assay [4] is reported as “efficiently blocked”. Besides, in assay [5], the HBV titer result is on record as “decreased” and the “levels of blood circulating HBsAg” value is “decreased”.
